These results are taken from PMC10065791 (eLife, 2023).

This series relates to HIV-1 NL4-3 wild-type virus. As to the kind of experiment: Selection for resistance in CEMx174 culture with escalating inhibitor, start wild-type virus, Primer ID deep sequencing. The settings on record: for Abundance of most abundant protease variant at the last time point: wild-type selection, at max inhibitor concentration reached (5000 nM; DRVwt 1350 nM); for primary protease resistance mutation(s) selected: as summarised in text over wild-type and mutant-pool selections. In kind it is cell-based. The procedure: . The selection experiments were performed under two separate starting conditions: first when the starting virus was generated from the NL4-3 clone (this clone closely approximates the clade B consensus for the protease amino acid sequence and will be referred to as ‘wild type’), then again when the starting virus was a mixture of 26 isogenic viruses each with a single mutation associated with drug resistance in the NL4-3 background. […]. For technical reasons, only five of the selections starting with the mixture of mutants reached an inhibitor concentration as high as 400 nM and are reported here (Figure 2—figure supplement 3).
Resistance mutations selected in the protease coding domain during the escalating selective pressure of increasing PI concentration were examined at various timepoints using a next-generation sequencing (NGS) protocol that included Primer ID with the MiSeq platform ([Zhou et al., 2015]). We first examined the sequence of the most abundant variant in each of the two selection schemes present at the highest inhibitor concentration reached (Figure 2A). For those selections that reached 5 μM, 8–14 mutations were present in the most abundant variant. Typically the next two most abundant variants in the population differed by a single amino acid, and on average the three most abundant variants in the 5 μM cultures accounted for 88% of the total viral population (Figure 2—source data 1). Evolution of resistance followed two pathways, one based on I50V and one based on I84V. In three cultures, V2wt, V5wt, and V2mut (which reached either 4 or 5 μM final drug concentration; V2wt indicates the virus pool selected with UMASS-2 starting with wild-type virus), these two mutations, I84V and I50V, became linked on the same genome (Figure 2A) showing they are not mutually exclusive; […].
An aliquot of 3 × 10^6 CEMx174 cells was incubated at 37°C for 2–3 hr with 250 µl of a virus stock generated from the HIV-1 infectious molecular clone pNL4-3. The culture volume was then brought to 10 ml with RPMI medium. […] After 48 hr and every 48 hr after, the cells were pelleted by centrifugation and 10 ml of fresh medium and inhibitors were added. When the culture had undergone extensive cytopathic effect (CPE) indicative of viral replication, the supernatant medium and the cells were harvested separately and stored at –80°C. The virus-containing supernatant was used to start the next round of infection, and after several rounds at the initial concentration, the inhibitor concentration was increased 1.5-fold at each subsequent round of virus passage.
We used the PID protocol to prepare MiSeq PID libraries with multiplexed primers. Viral RNA was extracted from plasma samples using the QIAamp viral RNA mini kit (QIAGEN, Hilden, Germany). Complementary DNA (cDNA) was synthesized using a cDNA primer mixture targeting protease (PR) with a block of random nucleotides in each cDNA primer serving as the PID, and SuperScript III RT (Thermo Fisher). After two rounds of bead purification of the cDNA, we amplified the cDNA using a mixture of a forward primer that targeted the upstream coding region, followed by a second round of PCR to incorporate the Illumina adaptor sequences. Gel-purified libraries were pooled and sequenced using the MiSeq 300 base paired-end sequencing protocol (Illumina). The sequencing covered the HIV-1 PR region (HXB2 2648-2914, 3001-3257).
We used the Illumina bcl2fastq pipeline for the initial processing and constructed template consensus sequences (TCSs) with TCS pipeline version 1.33 (https://github.com/SwanstromLab/PID) ([Zhou, 2019]). We then aligned TCSs to an HXB2 reference to remove sequences not at the targeted region or that had large deletions. We used the Entropy tool at LANL (https://www.hiv.lanl.gov/content/sequence/ENTROPY/entropy.html) to calculate entropy for each specimen. The sequencing data is available at NIH Sequencing Read Archive (SRA) under BioProject ID PRJNA853351.

The structures appear in SMILES notation.

For `CC(C)CN(C[C@@H](O)[C@H](Cc1ccccc1)NC(=O)O[C@H]1CO[C@H]2OCC[C@H]21)S(=O)(=O)c1ccc(N)cc1` [DRV, Darunavir, reference compound], the “Abundance of most abundant protease variant at the last time point” value (shortened to “Abundance”) is listed as 62.8%.

As to `CC[C@H](C)CN(C[C@@H](O)[C@H](Cc1ccccc1)NC(=O)O[C@H]1CO[C@H]2OCC[C@H]21)S(=O)(=O)c1ccc(N)cc1` [UMASS-1], the “primary protease resistance mutation(s) selected” value is given as “preferentially selects for I84V” and the “Abundance” value turned out to be 55.4%.

For the compound `CC[C@H](C)CN(C[C@@H](O)[C@H](Cc1ccccc1)NC(=O)O[C@H]1CO[C@H]2OCC[C@H]21)S(=O)(=O)c1ccc(OC)cc1` [UMASS-2], the “primary protease resistance mutation(s) selected” value was “I84V and I50V linked on the same genome”; the “Abundance” value turned out to be 37.5%.

`CC[C@H](C)CN(C[C@@H](O)[C@H](Cc1ccccc1)NC(=O)O[C@H]1CO[C@H]2OCC[C@H]21)S(=O)(=O)c1ccc(CO)cc1` [UMASS-3]: the “Abundance” value came to 85.7%.

For `CC[C@H](C)CN(C[C@@H](O)[C@H](Cc1ccccc1)NC(=O)O[C@H]1CO[C@H]2OCC[C@H]21)S(=O)(=O)c1ccc2c(c1)OCO2` [UMASS-4], the “Abundance” value came out at 87.3%.

On to `CC[C@H](C)CN(C[C@@H](O)[C@H](Cc1ccccc1)NC(=O)O[C@H]1CO[C@H]2OCC[C@H]21)S(=O)(=O)c1ccc2ncsc2c1` [UMASS-5], for which the “primary protease resistance mutation(s) selected” value was “I84V and I50V linked on the same genome”; the “Abundance” value is listed as 67.9%.

Turning to `CCC(CC)CN(C[C@@H](O)[C@H](Cc1ccccc1)NC(=O)O[C@H]1CO[C@H]2OCC[C@H]21)S(=O)(=O)c1ccc(N)cc1` [UMASS-6], the “Abundance” value stood at 45.1%.

For `CCC(CC)CN(C[C@@H](O)[C@H](Cc1ccccc1)NC(=O)O[C@H]1CO[C@H]2OCC[C@H]21)S(=O)(=O)c1ccc(OC)cc1` [UMASS-7], the “primary protease resistance mutation(s) selected” value is “just the I50V primary mutation” and the “Abundance” value is on record as 94.5%.

As for `CCC(CC)CN(C[C@@H](O)[C@H](Cc1ccccc1)NC(=O)O[C@H]1CO[C@H]2OCC[C@H]21)S(=O)(=O)c1ccc(CO)cc1` [UMASS-8], the “Abundance” value worked out at 55.4%.

Turning to `CCC(CC)CN(C[C@@H](O)[C@H](Cc1ccccc1)NC(=O)O[C@H]1CO[C@H]2OCC[C@H]21)S(=O)(=O)c1ccc2c(c1)OCO2` [UMASS-9], the “Abundance” value is listed as 92.3%.

For `CCC(CC)CN(C[C@@H](O)[C@H](Cc1ccccc1)NC(=O)O[C@H]1CO[C@H]2OCC[C@H]21)S(=O)(=O)c1ccc2ncsc2c1` [UMASS-10], the “primary protease resistance mutation(s) selected” value is “just the I50V primary mutation” and the “Abundance” value is on record as 91.2%.
